PubChem BioAssay AID1259414, Drosophila RNAi Screening Center, 2018
In all, the deposit lists about 24,000 reagents; shown is an unselected part of those that have a named target and a result. Over the whole deposit, about 1,210 (5%) were called active. 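Inactive calls also include excluded dsRNAs with several or no targets, genes unexpressed in JW18, and well A1, regardless of score.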 A number with no mark means an inactive call.

Screen: 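Genome-wide screen for host control of endosymbiont load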 (primary screen)
Cells: Drosophila JW18 cells infected with Wolbachia
Reagent: long dsRNA against Drosophila genes, 0.25 µg dsRNA per well of a 384-well plate
Duration: 5 days
Challenge: cells persistently infected with Wolbachia before knock-down; no added drug
Measured: 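Automated imaging of bacterial rRNA staining divided by host cell count, reported as plate-normalised robust z-score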
Scale: Wolbachia per cell robust z: higher = more Wolbachia per host cell than the plate typical
Call rule: 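Active if absolute robust z reaches 1.5 in two or more of three replicates, leaving out multi- or no-target dsRNAs, genes unexpressed in JW18 and A1 wells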

| Gene | amplicon | Wolbachia per cell robust z, rep 1 | Wolbachia per cell robust z, rep 2 | Wolbachia per cell robust z, rep 3 |
| --- | --- | --- | --- | --- |
| Acox57D-d (acyl-Coenzyme A oxidase at 57D distal) | DRSC04561 | -0.195 | -4.72 | 0.353 |
| Acox57D-d (acyl-Coenzyme A oxidase at 57D distal) | DRSC30108 | -0.49 | -1.19 | -0.359 |
| Hsp70Bc (Heat shock protein 70 Bc) | DRSC16053 | 0.112 | -0.776 | -0.579 |
| Gp150 | DRSC04618 | 0.654 | 0.0832 | 0.823 |
| Gp150 | DRSC29033 | 0.419 | 0.583 | 1.24 |
| FoxL1 (Forkhead box L1) | DRSC08717 | 1.1 | 1.45 | -1.09 |
| FoxL1 (Forkhead box L1) | DRSC25265 | -0.313 | -0.636 | 1.12 |
| CG12239 | DRSC17832 | 0.553 | -0.492 | -0.781 |
| CG12239 | DRSC27969 | 0.896 | 0.597 | 0.63 |
| Cftr (CF transmembrane conductance regulator) | DRSC15872 | -2.66 (active) | -7.55 | 0.225 |
| Cftr (CF transmembrane conductance regulator) | DRSC24655 | -0.45 | 0.241 | -0.0362 |
| cas (castor) | DRSC12373 | -1.73 | -1.36 | -0.461 |
| cas (castor) | DRSC24858 | -0.57 | -0.032 | -1.3 |
| cas (castor) | DRSC38957 | -0.254 | 0.42 | 1.04 |
| CG32379 | DRSC10318 | 1.93 | 0.146 | -5.67 |
| CG14893 | DRSC15015 | -2.19 | -0.538 | -1.22 |
| CG17029 | DRSC10240 | 0.0882 | 1.4 | 0.694 |
| CG17029 | DRSC29418 | -0.629 | -2.43 | -0.606 |
| CG17029 | DRSC41603 | 0.866 (active) | -1.8 | -1.78 |
| CG15014 | DRSC08468 | 0.745 | 0.6 | -0.123 |
| CG15014 | DRSC27374 | -1.08 | -0.155 | -0.645 |
| CG43237 | DRSC40520 | -1.5 | -1.39 | -2.85 |
| CG7252 | DRSC10789 | -1.55 | -0.0294 | -1.34 |
| CG7252 | DRSC21492 | 0.383 | -1.49 | 0.0267 |
| DCTN6-p27 (Dynactin 6, p27 subunit) | DRSC02609 | -1.69 | 1.4 | 0.372 |
| DCTN6-p27 (Dynactin 6, p27 subunit) | DRSC22810 | -0.204 | -0.665 | -0.677 |
| DCTN6-p27 (Dynactin 6, p27 subunit) | DRSC29904 | 0.37 | 0.525 | -0.371 |
| Phae1 (Phaedra 1) | DRSC02554 | 0.431 | -1.19 | 0.118 |
| nahoda | DRSC03954 | 0.412 | -0.827 | 0.304 |
| nahoda | DRSC04126 | 0.558 | 0.929 | 0.867 |
| CG6791 | DRSC16118 | -0.547 | -0.443 | -5.85 |
| CG6791 | DRSC29079 | -0.0222 | -4.55 | -0.865 |
| Arpc3B (Actin-related protein 2/3 complex, subunit 3B) | DRSC20126 | -0.475 | 0.0638 | -0.0935 |
| Arpc3B (Actin-related protein 2/3 complex, subunit 3B) | DRSC28523 | -0.11 | 1.7 | 1.37 |
| X11Lbeta | DRSC18156 | -0.791 | -2.03 | 0.25 |
| X11Lbeta | DRSC18158 | -3.65 | -1.05 | 0.575 |
| X11Lbeta | DRSC29533 | 0.635 | -3.2 | -0.139 |
| rush (rush hour) | DRSC18568 | 0.271 | -0.485 | -0.518 |
| Cyp4c3 (Cytochrome P450 4c3) | DRSC16631 | -0.787 | -0.323 | -1.83 |
| Cyp4c3 (Cytochrome P450 4c3) | DRSC23642 | 0.723 | -0.253 | 1.08 |
| CG15358 | DRSC00388 | -1.06 | 0.125 | -0.407 |
| CG34282 | DRSC16298 | -0.103 | 0.568 | -0.425 |
| CCT7 (Chaperonin containing TCP1 subunit 7) | DRSC16410 | -0.699 (active) | 1.9 | 2.02 |
| CG9855 | DRSC12344 | 0.42 | 1.74 | 1.13 |
| CG9855 | DRSC25547 | 0.702 | -0.0985 | -0.498 |
| CG9855 | DRSC39062 | 0.356 | -4.27 | -0.489 |
| CG15025 | DRSC15031 | 0.648 | -0.77 | -1.87 |
| Atg3 (Autophagy-related 3) | DRSC10736 | 0.324 | 0.173 | -1.65 |
| Atg3 (Autophagy-related 3) | DRSC21758 | 0.464 | 0.675 | 0.0975 |
| Atg3 (Autophagy-related 3) | DRSC29687 | 0.361 | 1.18 | 0.458 |
| CG8534 | DRSC16439 | -0.334 | -7.45 | 0.116 |
| rho-5 (rhomboid-5) | DRSC02847 | 0.229 | 0.108 | -0.997 |
| rho-5 (rhomboid-5) | DRSC26239 | 0.052 | -0.797 | 0.578 |
| dmpd (dampened) | DRSC06092 | 0.796 | -1.75 | 0.448 |
| mRpL37 (mitochondrial ribosomal protein L37) | DRSC16062 | -0.571 | 0.298 | -0.18 |
| CG14564 | DRSC11725 | -0.491 | 0.808 | -5.13 |
| CG14564 | DRSC22388 | 0.778 | -1.71 | 0.517 |
| CG34244 | DRSC38842 | -0.27 | -0.356 | -1.67 |
| Ibf1 (Insulator binding factor 1) | DRSC16419 | -0.494 | 0.724 | 0.31 |
| CG15564 | DRSC15102 | 0.865 | 0.762 | -3.4 |
| Cortactin | DRSC16612 | -0.259 | -1.12 | -1.31 |
| Cortactin | DRSC28012 | -0.177 | 0.383 | -0.791 |
| CG7300 | DRSC03044 | -0.0203 | 0.494 | -0.131 |
| CG7300 | DRSC28239 | 1.68 | -0.629 | -0.42 |
| Task7 (TWIK-related acid-sensitive K[+] channel 7) | DRSC16477 | 1.4 | 1.06 | 0.211 |
| Task7 (TWIK-related acid-sensitive K[+] channel 7) | DRSC26662 | -0.379 | -2.16 | -2.24 |
| CG42556 | DRSC41404 | 0.757 | -0.582 | 0.732 |
| Hnf4 (Hepatocyte nuclear factor 4) | DRSC03344 | -0.851 | 0.603 | 0.177 |
| Hnf4 (Hepatocyte nuclear factor 4) | DRSC26864 | 0.395 | 0.85 | -6.4 |

Called active, among the entries above:
| Gene | amplicon | Wolbachia per cell robust z, rep 1 | Wolbachia per cell robust z, rep 2 | Wolbachia per cell robust z, rep 3 |
| --- | --- | --- | --- | --- |
| Cftr (CF transmembrane conductance regulator) | DRSC15872 | -2.66 (active) | -7.55 | 0.225 |
| CG17029 | DRSC41603 | 0.866 (active) | -1.8 | -1.78 |
| CCT7 (Chaperonin containing TCP1 subunit 7) | DRSC16410 | -0.699 (active) | 1.9 | 2.02 |
